Key:
[1] = target: Biotinylated 2019-nCoV (COVID-19) S1 protein (16-685), His, Avitag (Severe acute respiratory syndrome coronavirus 2, UniProt P0DTC2); assay type: binding, SARS-COV-2; details: read-out: Geomean Average KD
[2] = target: spike protein S1 of SARS-COV-2 (Severe acute respiratory syndrome coronavirus 2, UniProt P0DTC2); assay type: binding
[3] = target: Biotinylated 2019-nCoV (COVID-19) S1 protein (16-685), His, Avitag (SARS-CoV-2), P0DTC2; assay: SPR, Biacore T200, geomean

Molecule | Kd [1] [nM] | also measured
A-(SEQ ID NO: 79)-A [BCY15446] | 1060 | –
A-(SEQ ID NO: 116)-A [BCY16207] | 8300 | –
A-(SEQ ID NO: 118)-A [BCY15444] | 2180 | –
A-(SEQ ID NO: 119)-A [BCY16927] | 18.8 | –
A-(SEQ ID NO: 120)-A [BCY16930] | 59.1 | –
A-(SEQ ID NO: 121)-A [BCY16933] | 25.3 | –
A-(SEQ ID NO: 122)-A [BCY16940] | 207 | –
A-(SEQ ID NO: 123)-A [BCY15445] | 482 | –
A-(SEQ ID NO: 124)-A [BCY16941] | 83.9 | –
A-(SEQ ID NO: 125)-A [BCY16942] | 92 | –
A-(SEQ ID NO: 126)-A [BCY16946] | 78.1 | –
A-(SEQ ID NO: 127)-A [BCY16948] | 9.79 | –
A-(SEQ ID NO: 128)-A [BCY16886] | 154 | –
A-(SEQ ID NO: 129)-A [BCY16887] | 95.3 | –
A-(SEQ ID NO: 130)-A [BCY16889] | 44.8 | –
A-(SEQ ID NO: 131)-A [BCY16895] | 43.7 | –
A-(SEQ ID NO: 132)-A [BCY17547] | 933 | –
A-(SEQ ID NO: 133)-A [BCY17548] | 1610 | –
A-(SEQ ID NO: 134)-A [BCY17540] | 1810 | –
A-(SEQ ID NO: 135)-A [BCY17541] | 245 | –
A-(SEQ ID NO: 136)-A [BCY17542] | 574 | –
A-(SEQ ID NO: 137)-A [BCY17543] | 178 | –
A-(SEQ ID NO: 138)-A [BCY17544] | 350 | –

Molecule | Kd [1] [nM] | also measured
A-(SEQ ID NO: 166)-A [BCY17359] | 2250 | –
Ac-(SEQ ID NO: 22) [BCY15576] | 89.9 | pKD [2]: 6.88
Ac-(SEQ ID NO: 37) [BCY16926] | 2470 | –
Ac-(SEQ ID NO: 79)-K [BCY18654] | 1280 | –
Ac-(SEQ ID NO: 80) [BCY18086] | 1710 | –
Ac-(SEQ ID NO: 112) [BCY16910] | 22.6 | –
Ac-(SEQ ID NO: 116) [BCY18698] | 8900 | –
Ac-(SEQ ID NO: 139) [BCY17279] | 55.2 | –
Ac-(SEQ ID NO: 140) [BCY17281] | 105 | –
Ac-(SEQ ID NO: 141) [BCY17282] | 99.5 | –
Ac-(SEQ ID NO: 142) [BCY17283] | 225 | –
Ac-(SEQ ID NO: 143) [BCY17287] | 1390 | –
Ac-(SEQ ID NO: 144) [BCY17289] | 44.1 | –
Ac-(SEQ ID NO: 145) [BCY17294] | 76.3 | –
Ac-(SEQ ID NO: 146) [BCY17301] | 77 | –
Ac-(SEQ ID NO: 147) [BCY17302] | 187 | –
Ac-(SEQ ID NO: 148) [BCY17303] | 109 | –
Ac-(SEQ ID NO: 149) [BCY17304] | 122 | –
Ac-(SEQ ID NO: 150) [BCY17305] | 67.3 | –
Ac-(SEQ ID NO: 151) [BCY17306] | 37.9 | –
Ac-(SEQ ID NO: 152) [BCY17307] | 73.3 | –
Ac-(SEQ ID NO: 153) [BCY17308] | 127 | –
Ac-(SEQ ID NO: 154) [BCY17309] | 95.3 | –

Molecule | Kd [1] [nM] | also measured
Ac-(SEQ ID NO: 155) [BCY17310] | 86.5 | –
Ac-(SEQ ID NO: 156) [BCY17311] | 33.6 | –
Ac-(SEQ ID NO: 157) [BCY17313] | 1350 | –
Ac-(SEQ ID NO: 158) [BCY18340] | 20.4 | –
Ac-(SEQ ID NO: 159) [BCY18341] | 66.7 | –
Ac-(SEQ ID NO: 160) [BCY18342] | 31.3 | –
Ac-(SEQ ID NO: 161) [BCY18343] | 71.5 | –
Ac-(SEQ ID NO: 162) [BCY18344] | 12.7 | –
Ac-(SEQ ID NO: 163) [BCY18345] | 34.7 | –
Ac-(SEQ ID NO: 164) [BCY18346] | 20.6 | –
Ac-(SEQ ID NO: 165) [BCY18347] | 50.3 | –
Ac-(SEQ ID NO: 168)-[K(PYA)] [BCY18025] | 898 | –
Ac-(SEQ ID NO: 169) [BCY18026] | 1160 | –
Ac-(SEQ ID NO: 170)-[K(PYA)] [BCY18027] | 1660 | –
Ac-(SEQ ID NO: 171)-[K(PYA)] [BCY18040] | 2220 | –
Ac-(SEQ ID NO: 172) [BCY18087] | 1220 | –
Ac-(SEQ ID NO: 173) [BCY18088] | 793 | –
Ac-(SEQ ID NO: 174)-[K(PYA)] [BCY18109] | 945 | –
Ac-(SEQ ID NO: 175) [BCY18110] | 829 | –
Ac-(SEQ ID NO: 176)-[K(PYA)] [BCY18115] | 224 | –
Ac-(SEQ ID NO: 177)-[K(PYA)] [BCY18211] | 813 | –
Ac-(SEQ ID NO: 178)-[K(PYA)] [BCY18212] | 1060 | –
Ac-(SEQ ID NO: 179)-[K(PYA)] [BCY18351] | 717 | –

Molecule | Kd [1] [nM] | also measured
Ac-(SEQ ID NO: 180)-[K(PYA)] [BCY18524] | 102 | –
Ac-(SEQ ID NO: 181)-[K(PYA)] [BCY18527] | 1720 | –
Ac-(SEQ ID NO: 182)-[K(PYA)] [BCY18529] | 1240 | –
Ac-(SEQ ID NO: 183)-[K(PYA)] [BCY18661] | 1600 | –
Ac-(SEQ ID NO: 184)-[K(PYA)] [BCY18662] | 2610 | –
Ac-(SEQ ID NO: 185) [BCY19305] | 3500 | –
Ac-(SEQ ID NO: 186) [BCY19309] | 220 | –
Ac-(SEQ ID NO: 187)-[K(PYA)] [BCY19378] | 70.9 | –
Ac-(SEQ ID NO: 203)-[K(PYA)] [BCY19599] | 44.5 | –
Ac-(SEQ ID NO: 205)-[K(PYA)] [BCY19638] | 11.9 | –
Ac-(SEQ ID NO: 206)-[K(PYA)] [BCY19639] | 34.4 | –
Ac-(SEQ ID NO: 207)-[K(PYA)] [BCY19640] | 350 | –
Ac-(SEQ ID NO: 208)-[K(PYA)] [BCY19641] | 199 | –
Ac-(SEQ ID NO: 209)-[K(PYA)] [BCY19654] | 384 | –
Ac-(SEQ ID NO: 210)-[K(PYA)] [BCY19655] | 98.5 | –
Ac-(SEQ ID NO: 211)-[K(PYA)] [BCY19658] | 61 | –
Ac-(SEQ ID NO: 212)-[K(PYA)] [BCY19827] | 0.485 | –
Ac-(SEQ ID NO: 213)-[K(PYA)] [BCY19990] | 66.1 | –
Ac-(SEQ ID NO: 214)-[K(PYA)] [BCY20268] | 0.462 | –
ACDWTCYLTMMPCA (modifications not checked) [BCY15444] | – | Kd [3]: 2180 nM
ACDWTCYLNIYHECA (modifications not checked) [BCY15445] | – | Kd [3]: 482 nM
ACIPLDWTCMIACA (modifications not checked) [BCY15446] | – | Kd [3]: 1060 nM
ACMNPFFYDCERTCA (modifications not checked) [BCY16207] | – | Kd [3]: 8300 nM

Molecule | Kd [1] [nM] | also measured
ACSDLMCWYLQRTDSCA (modifications not checked) [BCY16886] | – | Kd [3]: 154 nM
ACNSYMCWYLQRTDSCA (modifications not checked) [BCY16887] | – | Kd [3]: 95.3 nM
ACTSYLCWYLQRTDSCA (modifications not checked) [BCY16889] | – | Kd [3]: 44.8 nM
ACRSLMCWYLNQTDSCA (modifications not checked) [BCY16895] | – | Kd [3]: 43.7 nM
CVNKHNPVCRFYC (modifications not checked) [BCY16911] | – | Kd [3]: 12.6 nM
ACDWTCYLRPLPCA (modifications not checked) [BCY16927] | – | Kd [3]: 18.8 nM
ACDWTCYMSMKPCA (modifications not checked) [BCY16930] | – | Kd [3]: 59.1 nM
ACDWTCYISPMFDCA (modifications not checked) [BCY16940] | – | Kd [3]: 207 nM
ACDWTCYMDYLSNCA (modifications not checked) [BCY16941] | – | Kd [3]: 83.9 nM
ACDWTCYLRIHEACA (modifications not checked) [BCY16942] | – | Kd [3]: 92 nM
ACDWTCYMRINDACA (modifications not checked) [BCY16946] | – | Kd [3]: 78.1 nM
ACDWTCYINIYNTCA (modifications not checked) [BCY16948] | – | Kd [3]: 9.79 nM
ACNRPTSVYCLQRGICA (modifications not checked) [BCY17359] | – | Kd [3]: 2250 nM
ACLDETWIYCSTCA (modifications not checked) [BCY17540] | – | Kd [3]: 1810 nM
ACPDETWVYCSTCA (modifications not checked) [BCY17541] | – | Kd [3]: 245 nM
ACESNDWVYCSTCA (modifications not checked) [BCY17542] | – | Kd [3]: 574 nM
ACPDVSWIYCSTCA (modifications not checked) [BCY17544] | – | Kd [3]: 350 nM
ACEYNGPYCYRLYCA (modifications not checked) [BCY17547] | – | Kd [3]: 933 nM
ACEYVGPMCYRLYCA (modifications not checked) [BCY17548] | – | Kd [3]: 1610 nM
CIPLDWTCMIACK (modifications not checked) [BCY18654] | – | Kd [3]: 1280 nM
CMNPFFYDCERTC (modifications not checked) [BCY18698] | – | Kd [3]: 8900 nM
